Assay results from ChEMBL document CHEMBL5370550, “Structure-guided optimization of adenosine mimetics as selective and potent inhibitors of coronavirus nsp14 N7-methyltransferases” (Eur J Med Chem, 2023).
The source made the active and inactive calls. No cut-off for these calls is given here.

Target: Nonstructural protein 5 (Dengue virus) (UniProt V5TFZ2)
Settings: dengue virus type 3; dose 5.0 µM, time 30.0 min

Structure (SMILES): COc1ccc(S(=O)(=O)N(C)C[C@H]2O[C@@H](n3cc(C#Cc4ccccc4)c4c(N)ncnc43)[C@H](O)[C@@H]2O)cc1C#N
- inhibition: inactive

Structure (SMILES): CNc1ncnc2c1ncn2[C@@H]1O[C@H](CNS(=O)(=O)c2ccc(OC)c(C#N)c2)[C@@H](O)[C@H]1O
- inhibition: inactive

Structure (SMILES): CCN(C[C@H]1O[C@@H](n2cnc3c(NC)ncnc32)[C@H](O)[C@@H]1O)S(=O)(=O)c1ccc(OC)c(C#N)c1
- inhibition: 80.2%

Structure (SMILES): COc1ccc(S(=O)(=O)N(C)C[C@H]2O[C@@H](n3cc(C#Cc4cnc5ccccc5c4)c4c(N)ncnc43)[C@H](O)[C@@H]2O)cc1C#N
- inhibition: inactive
